# Assay results from US20230128372A1, “AZD1656 FOR USE IN THE TREATMENT OF PNEUMONITIS AND/OR MYCORDITIS CAUSED BY A CORONAVIRUS” (EXCALIBUR MEDICINES LIMITED, priority 2020, published 2023).
# Tested on: hospitalised diabetic patients with known or suspected COVID-19
# Details: 60 patients having completed the trial, blinded data, 100 mg BID orally or placebo, 21 days
compound,measurement,value
"COC[C@H](C)Oc1cc(Oc2cnc(C(=O)N3CCC3)cn2)cc(C(=O)Nc2cnc(C)cn2)c1 [AZD1656, 3-{[5-(Azetidin-1-ylcarbonyl)pyrazin-2-yl]oxy}-5-{[(1S)-1-methyl-2-(methyloxy)ethyl]oxy}-N-(5-methylpyrazin-2-yl)benzamide]",safety review by independent Safety Review Committee,no safety concerns
